Measurements taken from patent US20240166738A1 (priority 2021, published 2024).

Tested on: […] cells
Assay: microbe, parasite or virus in culture
Details: Severe acute respiratory syndrome coronavirus 2, NCI-H1975, in Mesocricetus auratus, 72 h, read-out: […]

CCC(CC)COC(=O)[C@H](C)N[P@](=O)(OC[C@H]1O[C@@](C#N)(c2ccc3c(N)ncnn23)[C@H](O)[C@@H]1O)Oc1ccccc1 [Remdesivir, remdesivir]
viability at 1 µM: 75 to 80%
